# Source: article PMC11904993, “Humanized Candida and NanoBiT Assays Expedite Discovery of Bdf1 Bromodomain Inhibitors With Antifungal Potential” (Advanced Science, 2025)
# Protein sequences, listed by entry. Tags and fused reporters are not part of them. Residues count along the entry.
# UniProt Q6FWV7, 100-228 limits assumed: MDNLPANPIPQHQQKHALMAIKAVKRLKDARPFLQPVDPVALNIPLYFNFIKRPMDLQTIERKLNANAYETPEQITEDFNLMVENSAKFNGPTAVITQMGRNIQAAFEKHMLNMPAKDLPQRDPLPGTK
# Target: CgBdf1 BD1 (Candida glabrata, UniProt Q6FWV7)
# Assay: HTRF assay, inhibition of H4ac4 peptide binding
# Design: species or system C. glabrata
# Settings: read-out: IC50 CgBdf1 BD1; Table S3; estimate, preliminary single-replicate HTRF assay
row,Compound,IC50
1,CC(=O)Nc1ccc(CCc2nc3ccc(C(=O)NC4CC4)cc3[nH]2)cc1,> 20 µM
2,CC(=O)c1cccc(NC(=O)Cn2cccc2-c2nc(-c3ccccc3)no2)c1,> 20 µM
3,CC(=O)Nc1ccc(Cc2nc(-c3cccc(-c4ccn[nH]4)c3)no2)cc1,> 20 µM
4,CCC(=O)Nc1ccc(CCc2nc3ccc(C(=O)NCc4ccc5c(c4)OCO5)cc3[nH]2)cc1,> 20 µM

# System: CgBdf1 BD1
# Assay: not given
# Settings: CgBdf1 BD1 WT; normalized peptide array signal
row,Compound,"Normalized (0 to 100%), WT, Average"
1,CC(=O)Nc1ccc(CCc2nc3ccc(C(=O)NC4CC4)cc3[nH]2)cc1,1.75%
2,CC(=O)c1cccc(NC(=O)Cn2cccc2-c2nc(-c3ccccc3)no2)c1,1.87%
3,CCC(=O)Nc1ccc(CCc2nc3ccc(C(=O)NCc4ccc5c(c4)OCO5)cc3[nH]2)cc1,2.5%

# Same assay, conditions: CgBdf1 BD1 WT; peptide array signal, left replicate
row,Compound,"Raw data, WT, Left"
1,CC(=O)Nc1ccc(CCc2nc3ccc(C(=O)NC4CC4)cc3[nH]2)cc1,0.005671
2,CC(=O)c1cccc(NC(=O)Cn2cccc2-c2nc(-c3ccccc3)no2)c1,0.01418
3,CCC(=O)Nc1ccc(CCc2nc3ccc(C(=O)NCc4ccc5c(c4)OCO5)cc3[nH]2)cc1,0.02174

# Same assay, conditions: CgBdf1 BD1 WT; peptide array signal, right replicate
row,Compound,"Raw data, WT, Rigt"
1,CC(=O)Nc1ccc(CCc2nc3ccc(C(=O)NC4CC4)cc3[nH]2)cc1,0.0293
2,CC(=O)c1cccc(NC(=O)Cn2cccc2-c2nc(-c3ccccc3)no2)c1,0.02331
3,CCC(=O)Nc1ccc(CCc2nc3ccc(C(=O)NCc4ccc5c(c4)OCO5)cc3[nH]2)cc1,0.02836

# Same assay, conditions: CgBdf1 BD1 YF mutant; normalized peptide array signal
row,Compound,"Normalized (0 to 100%), YF mutant, Average"
1,CC(=O)Nc1ccc(CCc2nc3ccc(C(=O)NC4CC4)cc3[nH]2)cc1,0.478%
2,CC(=O)c1cccc(NC(=O)Cn2cccc2-c2nc(-c3ccccc3)no2)c1,0.386%
3,CCC(=O)Nc1ccc(CCc2nc3ccc(C(=O)NCc4ccc5c(c4)OCO5)cc3[nH]2)cc1,0.432%

# Same assay, conditions: CgBdf1 BD1 YF mutant; peptide array signal, left replicate
row,Compound,"Raw data, YF mutant, Left"
1,CC(=O)Nc1ccc(CCc2nc3ccc(C(=O)NC4CC4)cc3[nH]2)cc1,0.005244
2,CC(=O)c1cccc(NC(=O)Cn2cccc2-c2nc(-c3ccccc3)no2)c1,0.004627
3,CCC(=O)Nc1ccc(CCc2nc3ccc(C(=O)NCc4ccc5c(c4)OCO5)cc3[nH]2)cc1,0.005552

# Same assay, conditions: CgBdf1 BD1 YF mutant; peptide array signal, right replicate
row,Compound,"Raw data, YF mutant, Right"
1,CC(=O)Nc1ccc(CCc2nc3ccc(C(=O)NC4CC4)cc3[nH]2)cc1,0.004318
2,CC(=O)c1cccc(NC(=O)Cn2cccc2-c2nc(-c3ccccc3)no2)c1,0.003085
3,CCC(=O)Nc1ccc(CCc2nc3ccc(C(=O)NCc4ccc5c(c4)OCO5)cc3[nH]2)cc1,0.003085

# Same assay, conditions: peptide array signal; CgBdf1 BD1 WT; first replicate column
row,Compound,"Raw data, WT"
1,CC(=O)Nc1ccc(Cc2nc(-c3cccc(-c4ccn[nH]4)c3)no2)cc1,0.05167

# Same assay, conditions: peptide array signal; CgBdf1 BD1 WT; mean of the two raw values
row,Compound,"Normalized (0 to 100%), WT"
1,CC(=O)Nc1ccc(Cc2nc(-c3cccc(-c4ccn[nH]4)c3)no2)cc1,10%

# Same assay, conditions: peptide array signal; CgBdf1 BD1 WT; second replicate column
row,Compound,"Raw data, WT"
1,CC(=O)Nc1ccc(Cc2nc(-c3cccc(-c4ccn[nH]4)c3)no2)cc1,0.1389

# Same assay, conditions: peptide array signal; CgBdf1 BD1 YF mutant; first replicate column
row,Compound,"Raw data, YF mutant"
1,CC(=O)Nc1ccc(Cc2nc(-c3cccc(-c4ccn[nH]4)c3)no2)cc1,0.003085

# Same assay, conditions: peptide array signal; CgBdf1 BD1 YF mutant; mean of the two raw values
row,Compound,"Normalized (0 to 100%), YF mutant"
1,CC(=O)Nc1ccc(Cc2nc(-c3cccc(-c4ccn[nH]4)c3)no2)cc1,0.308%

# Same assay, conditions: peptide array signal; CgBdf1 BD1 YF mutant; second replicate column
row,Compound,"Raw data, YF mutant"
1,CC(=O)Nc1ccc(Cc2nc(-c3cccc(-c4ccn[nH]4)c3)no2)cc1,0.003085

# System: CgBdf1 BD2
# Assay: not given
# Settings: CgBdf1 BD2 WT; normalized peptide array signal
row,Compound,"Normalized (0 to 100%), WT, Average"
1,CC(=O)Nc1ccc(CCc2nc3ccc(C(=O)NC4CC4)cc3[nH]2)cc1,0.639%
2,CC(=O)c1cccc(NC(=O)Cn2cccc2-c2nc(-c3ccccc3)no2)c1,0.92%
3,CCC(=O)Nc1ccc(CCc2nc3ccc(C(=O)NCc4ccc5c(c4)OCO5)cc3[nH]2)cc1,0.811%

# Same assay, conditions: CgBdf1 BD2 WT; peptide array signal, left replicate
row,Compound,"Raw data, WT, Left"
1,CC(=O)Nc1ccc(CCc2nc3ccc(C(=O)NC4CC4)cc3[nH]2)cc1,0.004055
2,CC(=O)c1cccc(NC(=O)Cn2cccc2-c2nc(-c3ccccc3)no2)c1,0.01154
3,CCC(=O)Nc1ccc(CCc2nc3ccc(C(=O)NCc4ccc5c(c4)OCO5)cc3[nH]2)cc1,0.00811

# Same assay, conditions: CgBdf1 BD2 WT; peptide array signal, right replicate
row,Compound,"Raw data, WT, Rigt"
1,CC(=O)Nc1ccc(CCc2nc3ccc(C(=O)NC4CC4)cc3[nH]2)cc1,0.008734
2,CC(=O)c1cccc(NC(=O)Cn2cccc2-c2nc(-c3ccccc3)no2)c1,0.006862
3,CCC(=O)Nc1ccc(CCc2nc3ccc(C(=O)NCc4ccc5c(c4)OCO5)cc3[nH]2)cc1,0.00811

# Same assay, conditions: CgBdf1 BD2 YF mutant; normalized peptide array signal
row,Compound,"Normalized (0 to 100%), YF mutant, Average"
1,CC(=O)Nc1ccc(CCc2nc3ccc(C(=O)NC4CC4)cc3[nH]2)cc1,0.721%
2,CC(=O)c1cccc(NC(=O)Cn2cccc2-c2nc(-c3ccccc3)no2)c1,1%
3,CCC(=O)Nc1ccc(CCc2nc3ccc(C(=O)NCc4ccc5c(c4)OCO5)cc3[nH]2)cc1,1.9%

# Same assay, conditions: CgBdf1 BD2 YF mutant; peptide array signal, left replicate
row,Compound,"Raw data, YF mutant, Left"
1,CC(=O)Nc1ccc(CCc2nc3ccc(C(=O)NC4CC4)cc3[nH]2)cc1,0.01166
2,CC(=O)c1cccc(NC(=O)Cn2cccc2-c2nc(-c3ccccc3)no2)c1,0.01534
3,CCC(=O)Nc1ccc(CCc2nc3ccc(C(=O)NCc4ccc5c(c4)OCO5)cc3[nH]2)cc1,0.02975

# Same assay, conditions: CgBdf1 BD2 YF mutant; peptide array signal, right replicate
row,Compound,"Raw data, YF mutant, Right"
1,CC(=O)Nc1ccc(CCc2nc3ccc(C(=O)NC4CC4)cc3[nH]2)cc1,0.002761
2,CC(=O)c1cccc(NC(=O)Cn2cccc2-c2nc(-c3ccccc3)no2)c1,0.003988
3,CCC(=O)Nc1ccc(CCc2nc3ccc(C(=O)NCc4ccc5c(c4)OCO5)cc3[nH]2)cc1,0.008282

# Same assay, conditions: peptide array signal; CgBdf1 BD2 WT; first replicate column
row,Compound,"Raw data, WT"
1,CC(=O)Nc1ccc(Cc2nc(-c3cccc(-c4ccn[nH]4)c3)no2)cc1,0.007174

# Same assay, conditions: peptide array signal; CgBdf1 BD2 WT; mean of the two raw values
row,Compound,"Normalized (0 to 100%), WT"
1,CC(=O)Nc1ccc(Cc2nc(-c3cccc(-c4ccn[nH]4)c3)no2)cc1,1.59%

# Same assay, conditions: peptide array signal; CgBdf1 BD2 WT; second replicate column
row,Compound,"Raw data, WT"
1,CC(=O)Nc1ccc(Cc2nc(-c3cccc(-c4ccn[nH]4)c3)no2)cc1,0.02464

# Same assay, conditions: peptide array signal; CgBdf1 BD2 YF mutant; first replicate column
row,Compound,"Raw data, YF mutant"
1,CC(=O)Nc1ccc(Cc2nc(-c3cccc(-c4ccn[nH]4)c3)no2)cc1,0.007975

# Same assay, conditions: peptide array signal; CgBdf1 BD2 YF mutant; mean of the two raw values
row,Compound,"Normalized (0 to 100%), YF mutant"
1,CC(=O)Nc1ccc(Cc2nc(-c3cccc(-c4ccn[nH]4)c3)no2)cc1,0.429%

# Same assay, conditions: peptide array signal; CgBdf1 BD2 YF mutant; second replicate column
row,Compound,"Raw data, YF mutant"
1,CC(=O)Nc1ccc(Cc2nc(-c3cccc(-c4ccn[nH]4)c3)no2)cc1,0.0006135
